PubChem BioAssay AID1224833 – University of Georgia, 2016

- Assay: 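Host factors restraining rotavirus as candidate antiviral genes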 (primary screen)
- Cells: monkey MA104 kidney cells
- Knock-down reagent: siRNA pool against human genes, 50 nM
- Timing: 48 h knock-down before infection; read 24 h after infection
- Challenge: infection with rotavirus strain RV3 two days after transfection; infectious dose for this stage not given
- Measured: 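Rotavirus antigen per well by fluorescent immunoassay, normalised to non-targeting control wells on each plate and given as a standard z-score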
- Scale: z-score vs non-targeting control: higher = more rotavirus replication than with non-targeting control
- Active means: In these data the active calls have z-score vs non-targeting control at about -1 or lower, or at about 1 or higher
- Meaning of the calls: active = z-score beyond 1 either way; inactive = z-score within 1 of zero
In all, the deposit lists about 12,000 reagents; shown is a random part of them. In the full data, about 5,600 (46%) got an active call. 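Active calls cover z-scores past 1 in both directions, so they include lowered as well as raised rotavirus replication.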

| target | z-score vs non-targeting control | activity call |
| --- | --- | --- |
| IFNA5 | -0.0755 | inactive |
| ARPC2 | -0.0889 | inactive |
| RBM39 | -2.52 | active |
| XG | -1.84 | active |
| OR6K6 | -0.496 | inactive |
| FANCD2OS | -1.63 | active |
| SART1 | -2.02 | active |
| NOL4 | 0.477 | inactive |
| CASQ1 | 0.123 | inactive |
| ZSCAN20 | -2.04 | active |
| CCDC171 | 0.647 | inactive |
| CYP2A13 | 1.16 | active |
| GAL | -6.6 | active |
| ZSWIM4 | -1.17 | active |
| CRYBA4 | -0.9 | inactive |
| UGCG | -2.01 | active |
| NUF2 | 0.382 | inactive |
| USP7 | 1.07 | active |
| RIMS1 | 1.55 | active |
| EGFL8 | -0.794 | inactive |
| COL9A1 | -2.69 | active |
| GLI4 | -1.06 | active |
| ANLN | -1.43 | active |
| OR9G1 | -0.391 | inactive |
| TP53BP2 | -1.22 | active |
| GPHRB | -1.25 | active |
| SMAD6 | 0.676 | inactive |
| SLC16A3 | -0.955 | inactive |
| SUSD1 | -2.98 | active |
| TMEM138 | -1.5 | active |
| APRT | -1.13 | active |
| DACT3 | -0.767 | inactive |
| PIWIL4 | -0.113 | inactive |
| TUBGCP5 | -0.415 | inactive |
| MRAP2 | -0.434 | inactive |
| MOBP | -1.06 | active |
| BLTP3A | -2.1 | active |
| OTUD6B | -1.16 | active |
| SPZ1 | -0.766 | inactive |
| NTSR1 | -1.28 | active |
| IFFO2 | 1.13 | active |
| DNAJC5 | -0.386 | inactive |
| CD55 | -1.05 | active |
| OTOA | -0.555 | inactive |
| ANKRD11 | -1.67 | active |
| COTL1 | -0.449 | inactive |
| FKBPL | 1.3 | active |
| MRRF | 2.48 | active |
| LYVE1 | -0.866 | inactive |
| CD300LB | 0.246 | inactive |
| DISP2 | 1.54 | active |
| GP6 | 0.978 | inactive |
| ZYX | 1.29 | active |
| ATP6V1A | -1.88 | active |
| DIPK1B | -0.67 | inactive |
| CXXC5 | -0.47 | inactive |
| CSTF3 | -0.819 | inactive |
| KLHDC2 | -0.639 | inactive |
| CIITA | -0.976 | inactive |
| ZNF804B | 0.488 | inactive |
| SLC66A1 | 0.0063 | inactive |
| PHC3 | 1.29 | active |
| STAB2 | 0.267 | inactive |
| RASSF6 | -1.99 | active |
| BBS5 | -1.22 | active |
| ACSL5 | -1.37 | active |
| CFAP410 | -2.31 | active |
| ZNF595 | -0.981 | inactive |
| MMAB | 0.677 | inactive |
| SLC41A2 | 1.78 | active |
| ZIM2 | -0.985 | inactive |
| FAM8A1 | -1.29 | active |
| HSPG2 | -0.682 | inactive |
| NACC2 | 0.105 | inactive |
| BCKDHB | -2.35 | active |
| CD160 | -1.77 | active |
| MTHFS | 0.89 | inactive |
| PSMC1 | 0.714 | inactive |
| FMNL1 | 0.231 | inactive |
| CRYBA2 | -1.63 | active |
| HDAC8 | -1.85 | active |
| P3H2 | 0.701 | inactive |
| CLDN10 | 0.083 | inactive |
| DBN1 | -0.462 | inactive |
| RABEPK | -3.08 | active |
| SLCO2B1 | 0.102 | inactive |
| IRS2 | 0.0333 | inactive |
| SREK1 | 0.692 | inactive |
| PLEKHG1 | 0.84 | inactive |
| DPM1 | -2.43 | active |
| ADGRL2 | -1.41 | active |
| OR10Q1 | 2.76 | active |
| AP4M1 | -1.85 | active |
| COMMD1 | 0.352 | inactive |
| NHSL2 | 0.477 | inactive |
| S100A14 | 1.56 | active |
| RWDD1 | -1.93 | active |
| RPP21 | -2.13 | active |
| PIK3R3 | 2.95 | active |
| E2F7 | 0.681 | inactive |
| FAM151B | -0.49 | inactive |
| TRMT11 | -1.21 | active |
| GPATCH8 | 1.66 | active |
| MT4 | -0.0666 | inactive |
| CPEB1 | -1.77 | active |
| LSM5 | -1.13 | active |
| TET1 | 0.372 | inactive |
| COL16A1 | -3.17 | active |
| MPRIP | -1.67 | active |
| TOGARAM1 | -0.761 | inactive |
| MSRB2 | -2.28 | active |
| PLEKHA6 | -0.662 | inactive |
| UST | -1.11 | active |
| DNASE1L3 | -2.02 | active |
| OR10R2 | 0.936 | inactive |
| ASPHD1 | -2.32 | active |
| MAPRE3 | -3.31 | active |
| SATB2 | -1.98 | active |
| SFI1 | 0.617 | inactive |
| SPTBN4 | -0.808 | inactive |
| CYP4F3 | 0.663 | inactive |
| CEP97 | -0.787 | inactive |
| NPC2 | -1.09 | active |
| BTN3A2 | -0.693 | inactive |
| EXOC3 | 0.778 | inactive |
| ANGPTL3 | 0.688 | inactive |
| ENTREP1 | -0.344 | inactive |
| CFAP161 | -0.609 | inactive |
| CCDC106 | 0.823 | inactive |
| TSEN15 | 0.301 | inactive |
| BIVM | 0.461 | inactive |
| GALP | 1.32 | active |
| TTC14 | 0.319 | inactive |
| CLEC4E | 1.73 | active |
| SOX6 | 0.0415 | inactive |
| ARID2 | -0.917 | inactive |
| BYSL | 1.6 | active |
| CYSTM1 | 1.24 | active |
| MCU | -0.89 | inactive |
| ZNF160 | -1.21 | active |

Part of the list above, set out differently.
CD160
- z-score vs non-targeting control: -1.77
- activity call: active

MTHFS
- z-score vs non-targeting control: 0.89
- activity call: inactive

PSMC1
- z-score vs non-targeting control: 0.714
- activity call: inactive

FMNL1
- z-score vs non-targeting control: 0.231
- activity call: inactive

CRYBA2
- z-score vs non-targeting control: -1.63
- activity call: active

HDAC8
- z-score vs non-targeting control: -1.85
- activity call: active

P3H2
- z-score vs non-targeting control: 0.701
- activity call: inactive

CLDN10
- z-score vs non-targeting control: 0.083
- activity call: inactive
